From patent US20240082282A1 (priority 2020, published 2024)

Test system: B. burgdorferi N40
Assay: Bait experiment in infected mice
Assay type: in vivo, C3H mice
Conditions: bait once a day for 5 days, HygA 200 mg/kg or doxycycline 100 mg/kg; sacrificed 3 days after treatment
Description: Mice were infected with B. burgdorferi.
To prepare the mouse bait, 2 g of Bait formulation 3 (Food source), 0.5 g freshly ground peanut butter (Whole foods), 35 μl of green food coloring mix (Whole foods) were added into a 60 mm Petri dish. Boiling water (4 mL) was added and mixed with a spatula. The mixture was then dispensed into wells of a 96 well plate with a spatula such that about ⅔rd of the well was full. Antibiotics or vehicle were added at appropriate volume and mixed with a pipette tip. Added volume was kept below 60 μL per well. The bait was allowed to air dry/solidify for a few hours and the prepared baits were stored at 4° C. until use.
To ensure that the bait would be consumed, mice were housed individually with their mouse chow withheld during treatment. The doses used in mice were matched to the pharmacokinetic profile of humans given ceftriaxone 1 g every 12 hours (Sai Life Sciences Ltd, India) and doxycycline 100 mg every 12 hours.
Skin was used for liquid culture, and RNA extraction. All other tissues were used for RNA extraction. The growth of B. burgdorferi in 10 day liquid cultures was detected by dark field microscopy with a 100× objective.

Substance: Hygromycin A
- Infection status by culture and PCR after bait: clear of infection by culture and PCR
